A mixed list of measured activities; the numbers were collected in NIAID ChemDB.

All rows: tests in culture; organism: Pneumocystis carinii; endpoint: EC50

ECn: concentration that inhibits the pathogen or its effect by n%.

structure,cell line,setting,value
N/C(=N\O)c1ccc(NC(=O)c2cccc(C(=O)Nc3ccc(/C(N)=N/O)cc3)c2)cc1,A549,-,>100 µg/mL
Nc1nc(N)c2nc(CSc3ccccc3)cnc2n1,-,-,75 µM
N#Cc1ccc(N2CCN(c3ccc(C#N)cc3)CC2)cc1,A549,-,97.2 µg/mL
CCc1nc(N)nc(N)c1-c1ccc(Cl)cc1,-,-,26.1 µM
Nc1ccc(S(=O)(=O)Nc2cc(F)cc(F)c2)cc1,-,5 d,>100 µM
Nc1nc(NC2CC2)c2ncn([C@H]3C=C[C@@H](CO)C3)c2n1,-,-,>100 µg/mL
CN1CCN(C)C1c1ccc(N2CCN(c3ccc(C4N(C)CCN4C)cc3)CC2)cc1,A549,-,>100 µg/mL
Cc1cn([C@H]2C=C[C@@H](CO)O2)c(=O)[nH]c1=O,-,-,>100 µg/mL
c1cc(N2CCCN(c3ccc(/C(=N\C4=NCCCN4)NC4=NCCCN4)cc3)CC2)ccc1/C(=N/C1=NCCCN1)NC1=NCCCN1,A549,-,2.18 µg/mL
CC(C)(C)[C@]1(O)C[C@@H]2OC(=O)C[C@@]23C(=O)O[C@@H]2OC(=O)[C@H](O)[C@]213,-,-,50 µg/mL
CN(Cc1cnc2nc(N)nc(N)c2n1)c1c(Cl)cc(C(=O)N[C@@H](CCC(=O)O)C(=O)O)cc1Br,-,-,8.1 µM
O=C(O)CNCP(=O)(O)O,-,20 h,0.052 µM
CCC[C@@H]1C[C@@H](C(=O)N[C@@H]([C@H]2O[C@H](SC)[C@H](O)[C@@H](O)[C@H]2O)[C@H](C)Cl)N(C)C1,-,10 d,>5 µg/mL
CN(C/C=C/C#CC(C)(C)C)Cc1cccc2ccccc12,A549,-,0.3 µg/mL
CN(Cc1cnc2nc(N)nc(N)c2n1)c1c(Cl)cc(C(=O)N[C@@H](CCC(=O)O)C(=O)O)cc1Cl,-,-,0.72 µM
N=C(N)c1ccc(OCc2ccc(COc3ccc(C(=N)N)cc3)cc2)cc1,A549,-,0.786 µg/mL
Cc1c(CNc2ccc(Cl)c(C(=O)NC(CC(=O)O)C(=O)O)c2)ccc2nc(N)nc(N)c12,-,-,1.4 µM
N/C(=N\O)c1ccc(N2CCN(c3ccc(/C(N)=N/O)cc3)CC2)cc1,A549,-,3.3 µg/mL
Nc1ccn([C@H]2CC[C@@H](CO)O2)c(=O)n1,-,-,>100 µg/mL
Cc1cc(NS(=O)(=O)c2ccc(N)cc2)no1,-,5 d,>100 µM
N/C(=N\C1=NCCN1)c1ccc(NC(=O)C2CC2C(=O)Nc2ccc(/C(N)=N/C3=NCCN3)cc2)cc1,A549,-,8.2 µg/mL
CN(Cc1cnc2nc(N)nc(N)c2n1)c1ccc(C(=O)N[C@@H](CCC(=O)N[C@@H](CCC(=O)N[C@@H](CCC(=O)N[C@@H](CCC(=O)O)C(=O)O)C(=O)O)C(=O)O)C(=O)O)cc1,-,-,1.4 µM

Repeating the first 2 entries:

structure,cell line,setting,value
N/C(=N\O)c1ccc(NC(=O)c2cccc(C(=O)Nc3ccc(/C(N)=N/O)cc3)c2)cc1,A549,-,>100 µg/mL
Nc1nc(N)c2nc(CSc3ccccc3)cnc2n1,-,-,75 µM

Blank or dashed fields: not listed here. Conditions beyond the fields shown may differ between rows.